Laboratory results from US20090291885A1, “Conjugated toxin peptide therapeutic agents” (published 2009).

Columns and labels:
[1] = molecular target: human Kv1.1 channel (human) (UniProt Q09470); assay: cell-based or functional assay
[2] = molecular target: human Kv1.3 channel (human) (UniProt P22001); assay: cell-based or functional assay

Substance | hKv1.1: IC50 [pM] [1] | fold change of Kv1.3 potency against Fc-L10-OSK1 [2] | fold loss of potency in Kv1.3 current block against synthetic OSK1 [2]
Fc-L10-OSK1[K7S, E16K, K20D] (Fc fusion) | 10000 pM | – | –
Fc-L10-OSK1[K7S] (Fc fusion) | 100000 pM | 2 fold | 10 fold
